Results taken from patent US7811577B2 (priority 2004, dated 2010).

Molecular target: biotinylated-5-Helix/D5-FITC IgG
Experiment: D5 IgG binding IC50 (nM)***
Details: read-out: D5 IgG binding IC50 (nM)***

B1: ac-C(Acm)(thioIZN17)3: one ac-C(Acm)Ttds-CCIZN17 chain ligated via two thioether bonds to two acetyl-GGGIZN17 chains (peptide)
peptide 1: CCCGGIKKEIEAIKKEQEAIKKKIEAIEKLLQLTVWGIKQLQARIL
peptide 2: GGGIKKEIEAIKKEQEAIKKKIEAIEKLLQLTVWGIKQLQARIL
IC50: 28 nM

B2: ac-C(Acm)(thioS17N17)3: one ac-C(Acm)Ttds-CCS17N17 ligated via two thioether bonds to two acetyl-GGGS17N17 chains (peptide)
peptide 1: CCCGGIEKKIEAIEKKIEAIEKLLQLTVWGIKQLQARIL
peptide 2: GGGIEKKIEAIEKKIEAIEKLLQLTVWGIKQLQARIL
modifications: cyclised or stapled
IC50: 51 nM
